Test results as given in article PMC3868556.
The exact form of at least one protein or probe is not confirmed.

Tested on: ComP
Experiment: SPR
Details: 30 uM ComP, no measurable difference from DUS, SPR (ProteOn XPR36, NLC chip): 25 mM HEPES pH 7.9, 150 mM NaCl, 2.5 mM MgCl2, 0.05% Tween-20, 25 C, recombinant protein, protein details: MBP fusion (pMAL-p2X), MBP removed with factor Xa, label: 5'-biotin on strand 1

Row | Sequence | binding result
1 | TGACCAGGCCGTCTGAACAAAC (double strand) [DUSvar1] | binds
2 | TGACCAGGTCGTCTGAACAAAC (double strand) [DUSvar2] | binds
